Assay results from US12508251B2, “CD4 mimic compound with anti-HIV activity” (NATIONAL UNIVERSITY CORPORATION KUMAMOTO UNIVERSITY, priority 2019, dated 2025).

System: HIV isolate (KP5mvcR)
Type: cell-based, HIV-1
Settings: CC50/IC50, TZM-bl cells, KP-5mvcR
Source text: In this Example, TZM-bl cells (available from NIH AIDS Reagent Program (https://www.aidsreagent.org/Index.cfm)) were used for individual evaluations. TZM-bl cells have CD4/CCR5/CXCR4 on the surface and express luciferase when infected with HIV. In this manner, TZM-bl cells serve as indicator cells. In the cells, β-galactosidase gene linked to HIV-1 LTR sequence is integrated. When the cells are infected with HIV-1, the tat gene of HIV-1 expresses a transcriptional activator Tat, which acts on the promoter region of LTR to express β-galactosidase. When a substrate is added, enzymatic cleavage occurs to produce galactose and luciferin. Luciferin is oxidized by luciferase to generate chemiluminescence, which can be detected by a luminometer to determine the number of cells infected with HIV-1.
2) IC50 (Calculation of Anti-HIV Activity)
After each compound was serially diluted, TZM-bl cells (1×10^4) and 100TCID50 of HIV isolate (KP5mvcR) were added, and then, cultured for 48 hours. Thereafter, the cells were collected and a Luc reporter reagent was added. The amount of luminescence was measured to calculate the inhibition rate of infection (IC50). […]

| Structure (SMILES) | SI (selectivity index) |
| --- | --- |
| CC1(C)CC(NC(=O)C(=O)Nc2ccc(Cl)cc2)CC(C)(C)N1 [NBD-556, reference compound] | 656 |
| COCCOCCOCCOCCOCCOCCOCCOCCOCCOCCOCCOCCOCCOCCOCCOCCOCCOCCOCCOCCOCCOCCOCCOCCNC(=O)CCC(=O)N[C@@H](CCCNC(=N)N)C(=O)NCCN1CCC(NC(=O)C(=O)Nc2ccc(Cl)cc2)CC12CCCCC2 (some centres unmarked) [TKB-003] | >400 |
